Sequence variants of PSTVd loop 15 after infection

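Three N. benthamiana plants were inoculated with the whole mutant pool. Samples came from the inoculated region at 5 days, the leaf margin at 10 and upper systemic leaves at 12.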

The pool varies loop 15 of the PSTVd intermediate strain in the pattern GGAAACCGNNNNNNC; wild type is GGAAACCGCUACUAC (upper and lower strand joined, each 5' to 3', the first 7 letters being the upper strand, closing pairs included).

Numbers give reads per thousand; 0 = not seen among the reads, higher = more abundant.
Each value is the mean of three plants.
"Pool" is the share in the plasmid pool used as inoculum, on the same scale.
The inoculated region was read from the minus strand, the other sites from the plus strand.

sequence	pool	inoculated region	leaf margin	systemic leaves
GGAAACCGAAACCAC	0.240	0.439	0.0854	0.0256
GGAAACCGAAAUCCC	0.240	0.108	0.0134	0
GGAAACCGAAGAUCC	0.352	0.110	0.00742	0
GGAAACCGAAUACUC	0.176	0.0977	0.0141	0
GGAAACCGAAUCCAC	0.192	0.0788	0.0128	0
GGAAACCGACAUCAC	0.224	0.388	0.106	0.0234
GGAAACCGACCUUGC	0.160	0.0729	0.0134	0
GGAAACCGACGCCGC	0.224	0.0623	0.0187	0
GGAAACCGACGUUUC	0.272	0.0847	0.0208	0
GGAAACCGACUGAAC	0.176	0.0748	0	0
GGAAACCGACUGCCC	0.304	0.0998	0.00668	0
GGAAACCGAGCCAGC	0.0960	0.0977	0.0134	0
GGAAACCGAGGCCCC	0.256	0.172	0.0134	0
GGAAACCGAGUGAUC	0.288	0.132	0	0
GGAAACCGAUAGCGC	0.272	0.138	0	0
GGAAACCGAUUGCGC	0.240	0.0926	0.00668	0
GGAAACCGAUUGGAC	0.272	0.0778	0.00668	0
GGAAACCGCACAACC	0.384	0.0838	0.0175	0
GGAAACCGCACGGAC	0.176	0.294	0.122	0.0161
GGAAACCGCAGGAUC	0.224	0.0965	0	0
GGAAACCGCCAGAUC	0.272	0.355	0.0557	0.0685
GGAAACCGCCCGCAC	0.160	0.108	0.00539	0
GGAAACCGCCGAGUC	0.224	0.0939	0.0121	0.00760
GGAAACCGCCGGGGC	0.240	0.122	0	0
GGAAACCGCCUCGAC	0.192	0.126	0.00742	0.00537
GGAAACCGCGCACAC	0.224	0.135	0.00539	0
GGAAACCGCGGAGGC	0.256	0.0705	0.00539	0
GGAAACCGCGGCAGC	0.224	0.133	0.0141	0.00537
GGAAACCGCGGGCUC	0.240	0.107	0.0308	0.00760
GGAAACCGCUACUAA	0.208	0.504	0.758	0.206
GGAAACCGCUGGGCC	0.112	0.0442	0.0128	0.00537
GGAAACCGCUUGCGC	0.272	0.126	0.0141	0
GGAAACCGCUUGUCC	0.224	0.0965	0.00539	0
GGAAACCGGAACAGC	0.176	0.113	0.0308	0
GGAAACCGGAUGUUC	0.368	0.0533	0.0141	0
GGAAACCGGCCCUAC	0.128	0.0470	0.0208	0.00537
GGAAACCGGGAUGGC	0.208	0.106	0.0182	0.0107
GGAAACCGGGUAUGC	0.160	0.125	0.0262	0.00537
GGAAACCGGUCCCAC	0.176	0.114	0.0134	0
GGAAACCGGUCCUAC	0.288	0.358	0.164	0.0711
GGAAACCGGUCGGGC	0.336	0.0965	0.0269	0
GGAAACCGGUCUCCC	0.240	0.0560	0	0.00537
GGAAACCGGUUAGUC	0.352	0.0962	0.0108	0.0206
GGAAACCGGUUCUUC	0.256	0.117	0.00539	0
GGAAACCGUAGAUUC	0.192	0.324	0.115	0.00537
GGAAACCGUAUUUCC	0.368	0.0568	0	0.00537
GGAAACCGUCACCUC	0.304	0.270	1.09	0.0161
GGAAACCGUCCCUAC	0.224	0.366	0.0860	0.0511
GGAAACCGUCGACUC	0.240	0.0849	0.0141	0.0107
GGAAACCGUCUAGCC	0.192	0.0515	0.00668	0
GGAAACCGUCUUUAC	0.160	0.419	0.0572	0.0584
GGAAACCGUGCCACC	0.272	0.0813	0.00539	0
GGAAACCGUGCCCUC	0.208	0.110	0.00668	0.00537
GGAAACCGUGGACAC	0.272	0.101	0.0187	0
GGAAACCGUGGUUCC	0.112	0.0869	0.0134	0
GGAAACCGUUAACCC	0.272	0.0696	0	0
GGAAACCGUUCCUUC	0.208	0.278	0.117	0.0515
GGAAACCGUUGCUAC	0.176	0.307	0.109	0.0852

The first 4 entries again:

sequence	pool	inoculated region	leaf margin	systemic leaves
GGAAACCGAAACCAC	0.240	0.439	0.0854	0.0256
GGAAACCGAAAUCCC	0.240	0.108	0.0134	0
GGAAACCGAAGAUCC	0.352	0.110	0.00742	0
GGAAACCGAAUACUC	0.176	0.0977	0.0141	0

Samples held 43,870 to 66,106 reads, so the smallest values rest on one or two reads.
Sequences that differ at fixed positions probably stem from PCR or sequencing errors, and defective variants can be carried along by functional ones.
For reference, wild type rose from 33.9 per thousand in the pool to 202, 200, 159 (inoculated region), 724, 746, 710 (leaf margin) and 856, 883, 880 (systemic leaves).

From the data files of Wu et al. 2024, doi:10.1371/journal.ppat.1012142.